{"source": "patent US20240180982A1", "about": "(published 2024)", "target": "CAR on CHO-CAR cells (human) (UniProt P78310)", "assay": "FACS", "design": "unit not given beside the values", "data": [{"substance": "Recombinant HAdV-C5 fiber knob protein (from UniProt P11818 387-581)", "values": [{"measurement": "IC50", "value": "0.0001804 ?"}]}]}
